Assay results reported in article PMC5900758.

How the values were obtained:
CC(=O)C(=O)O = assay: purified protein; details: pH 7.4; 30.0 °C
O=C(O)C[C@H](O)C(=O)O = assay: purified protein; details: pH 7.4; 30.0 °C

## Mtb MEZ (malic enzyme) (Mycobacterium tuberculosis H37Rv)
CC(=O)C(=O)O
  K0.5: 91.98 ± 6.73 mM
  kcat: 86.2 s⁻¹
O=C(O)C[C@H](O)C(=O)O
  K0.5: 18.86 ± 0.52 mM
  kcat: 2120 s⁻¹
